Data as given in doi:10.1101/2020.07.22.215871.
Construct, isoform or probe ends are uncertain for at least one entry. No signal at the amounts used counts as a negative. For some assays here: At least one verdict was read from the data and is not stated in words by the source. For some assays here: Where a protein sequence is shown, tags need not be part of it.

Columns and labels:
[1] = target: T1, TbmtHMG44 (MBP cleaved off by TEV) (Trypanosoma brucei) (UniProt A0A1G4IA56); assay: EMSA; conditions: TEV protease present
T1 sequence (looked up, limits assumed): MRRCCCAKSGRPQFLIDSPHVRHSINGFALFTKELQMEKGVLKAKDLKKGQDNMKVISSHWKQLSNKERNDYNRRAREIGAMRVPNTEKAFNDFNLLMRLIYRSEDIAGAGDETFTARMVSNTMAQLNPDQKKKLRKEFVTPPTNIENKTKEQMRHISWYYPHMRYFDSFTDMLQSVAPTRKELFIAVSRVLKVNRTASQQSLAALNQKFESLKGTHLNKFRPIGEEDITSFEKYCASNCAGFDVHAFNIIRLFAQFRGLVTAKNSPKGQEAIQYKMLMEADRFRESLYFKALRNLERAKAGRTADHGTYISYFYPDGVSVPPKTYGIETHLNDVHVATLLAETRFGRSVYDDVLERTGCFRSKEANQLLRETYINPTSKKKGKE

[2] = system: MBP-TbmtHMG44 (MBP-5020) (Trypanosoma brucei); assay: EMSA

“GAAAAAACGGAAAATCTTATGGGCGTGCAAAAATACACATACACAAATCCCGTGCTTATTTTAGGCCATTTTT (double strand) [73 bp conserved minicircle sequence]”: no binding [1]; no binding [2].
